Measured values taken from paper doi:10.1101/2020.01.05.895227.
pKd: −log10 of the molar value. For at least one entry, the source does not settle the construct or the ends of the probe. For some assays here: A weaker result is weaker than the reference pair of the same experiment. For some assays here: At least one verdict rests on a figure or table, not on a statement of the authors.

Protein sequences, listed by entry. Tags and fused reporters are not part of them. Lines headed by an entry give the natural chain unless they say otherwise; changes in a name come on top.
UniProt J9VI03: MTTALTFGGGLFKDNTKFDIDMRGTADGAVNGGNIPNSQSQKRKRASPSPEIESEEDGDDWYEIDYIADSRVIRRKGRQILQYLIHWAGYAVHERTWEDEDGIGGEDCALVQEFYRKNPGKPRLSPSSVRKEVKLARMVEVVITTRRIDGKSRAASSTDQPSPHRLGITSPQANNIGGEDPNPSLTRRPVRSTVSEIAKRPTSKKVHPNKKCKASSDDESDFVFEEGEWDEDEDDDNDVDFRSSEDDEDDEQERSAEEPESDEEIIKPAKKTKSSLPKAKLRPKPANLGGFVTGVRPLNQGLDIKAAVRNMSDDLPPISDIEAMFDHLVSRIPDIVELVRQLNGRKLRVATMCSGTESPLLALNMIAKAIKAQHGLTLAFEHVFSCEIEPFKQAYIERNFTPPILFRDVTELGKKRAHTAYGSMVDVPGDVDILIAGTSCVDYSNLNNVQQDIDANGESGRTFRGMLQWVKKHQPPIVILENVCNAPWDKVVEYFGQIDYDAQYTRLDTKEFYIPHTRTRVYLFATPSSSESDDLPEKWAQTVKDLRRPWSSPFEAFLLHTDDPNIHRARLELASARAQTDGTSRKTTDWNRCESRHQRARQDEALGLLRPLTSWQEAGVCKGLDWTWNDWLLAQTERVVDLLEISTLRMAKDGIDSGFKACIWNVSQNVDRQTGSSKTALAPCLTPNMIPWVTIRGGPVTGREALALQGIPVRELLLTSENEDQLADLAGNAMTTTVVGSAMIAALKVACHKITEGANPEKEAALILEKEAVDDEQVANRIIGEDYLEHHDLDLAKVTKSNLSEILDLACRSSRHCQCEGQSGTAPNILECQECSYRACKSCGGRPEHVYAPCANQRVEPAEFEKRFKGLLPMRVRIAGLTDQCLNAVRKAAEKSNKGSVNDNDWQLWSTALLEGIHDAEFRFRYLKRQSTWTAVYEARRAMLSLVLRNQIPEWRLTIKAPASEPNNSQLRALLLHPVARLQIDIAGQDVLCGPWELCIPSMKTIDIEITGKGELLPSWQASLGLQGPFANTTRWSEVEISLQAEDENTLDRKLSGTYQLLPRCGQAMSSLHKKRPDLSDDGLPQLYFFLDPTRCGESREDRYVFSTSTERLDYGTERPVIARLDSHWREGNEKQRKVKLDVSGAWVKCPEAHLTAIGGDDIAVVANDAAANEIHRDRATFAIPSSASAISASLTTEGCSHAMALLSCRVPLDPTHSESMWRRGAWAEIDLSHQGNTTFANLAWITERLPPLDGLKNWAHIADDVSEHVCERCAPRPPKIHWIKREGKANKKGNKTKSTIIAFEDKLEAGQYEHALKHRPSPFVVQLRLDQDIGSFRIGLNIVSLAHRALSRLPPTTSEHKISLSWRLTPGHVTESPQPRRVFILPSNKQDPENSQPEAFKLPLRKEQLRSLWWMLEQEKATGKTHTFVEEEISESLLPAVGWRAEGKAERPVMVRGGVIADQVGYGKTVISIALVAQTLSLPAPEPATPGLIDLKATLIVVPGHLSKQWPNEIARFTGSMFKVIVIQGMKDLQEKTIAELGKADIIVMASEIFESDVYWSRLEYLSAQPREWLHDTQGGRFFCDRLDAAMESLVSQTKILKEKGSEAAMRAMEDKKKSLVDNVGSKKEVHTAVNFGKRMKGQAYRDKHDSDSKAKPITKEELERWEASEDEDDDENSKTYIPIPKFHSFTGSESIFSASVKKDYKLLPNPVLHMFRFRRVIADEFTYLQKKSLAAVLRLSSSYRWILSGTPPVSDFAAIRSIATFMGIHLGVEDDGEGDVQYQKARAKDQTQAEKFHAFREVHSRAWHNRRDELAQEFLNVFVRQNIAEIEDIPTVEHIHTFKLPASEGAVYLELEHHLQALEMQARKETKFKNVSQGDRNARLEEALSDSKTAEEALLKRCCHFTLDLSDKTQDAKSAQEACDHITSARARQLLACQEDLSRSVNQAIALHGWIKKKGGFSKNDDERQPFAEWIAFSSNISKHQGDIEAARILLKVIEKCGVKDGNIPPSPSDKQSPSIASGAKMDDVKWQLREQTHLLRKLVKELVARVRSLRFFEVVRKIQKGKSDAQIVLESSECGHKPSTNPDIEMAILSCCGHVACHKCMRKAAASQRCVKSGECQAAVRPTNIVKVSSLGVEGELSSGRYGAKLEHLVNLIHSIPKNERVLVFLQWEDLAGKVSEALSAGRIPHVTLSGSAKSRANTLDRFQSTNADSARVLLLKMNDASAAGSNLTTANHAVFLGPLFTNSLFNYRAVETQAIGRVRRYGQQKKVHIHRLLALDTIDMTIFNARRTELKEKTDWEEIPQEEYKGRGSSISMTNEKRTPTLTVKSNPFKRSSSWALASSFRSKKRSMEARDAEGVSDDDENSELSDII

Key:
[1] = biological target: Dnmt5 full-length (Cryptococcus neoformans) (UniProt J9VI03); assay: EMSA; details: 1 mM MgCl2, 5mC at strand 1 positions 13, 34, 47, residues 1-2377
[2] = biological target: Dnmt5 full-length (Cryptococcus neoformans) (UniProt J9VI03); assay: competition with a labelled probe; details: 1 uM competitor, 67 nM protein, 1 nM labeled unmethylated DNA; residues 1-2377

Row | Sequence | binding result ([1]; 1 mM ADP) | binding result ([1]; 1 mM AMP-PCP) | pKd ([1]; 1 mM AMP-PNP) | binding result ([1]; 1 mM ATP) | binding result [2]
1 | CATGGCCTAAGCCGGACTGAATGAGCAAGCTTCCGGAGAATTCTGCCGGACTGCAGATGC (double strand) [Hemimethylated 60 bp DNA (3 CG), Cy5] | binds more weakly | binds more weakly | < 7.00 | binds more weakly | –
2 | CATGGCCTAAGCCGGACTGAATGAGCAAGCTTCCGGAGAATTCTGCCGGACTGCAGATGC (double strand) [Unlabeled unmethylated competitor DNA] | – | – | – | – | binds
